The record followed here is patent publication US20250143290A1, “AGROCHEMICAL COMPOSITION COMPRISING AT LEAST ONE AGROCHEMICAL ACTIVE COMPONENT AND A SOLVENT” (MINAGRO SRL, priority 2022, published 2025).

The subject of the series is microorganisms of the inoculum.

Like-named read-outs stand apart in the source and are kept apart here.

As to `CCCCOCC1CCCO1` (centres unmarked) [n-butyl THF, 2-(butoxymetyl)tetrahydrofuraan], the readily biodegradable (28-day test OECD301F) worked out at 100%. Also, the “Biodegradation (%)” value runs as follows: (day 0, OECD301F, 22±1° C., test material 92 mg/L) 0.0%; (day 7) 5.6%; (day 14) 77%; (day 21) 96%; (day 28) 105%. The molecule also came in with a biodegradability (day 18) of 91% and a biodegradability (day 23) of 100%.
